Compound potency records, mixed from different reports. Data source: NIAID ChemDB in PubChem.

Common to all: host cell toxicity; cell line: PBMC; read-out: CC50

CCn: concentration that lowers growth or viability of the cells by n%. Neighbouring rows are from separate reports.

{"structure": "CCCCCCCCCCCCCCCCCCOCCOP(=O)(O)CO[C@H](CO)Cn1cnc2c(N)ncnc21", "read by": "flow cytometry", "result": "16.5 µM"}
{"structure": "CC(=O)[O-].CC(=O)[O-].CCC1=C(CC)C2/C=C3\\N=C(C=Nc4cc(OCCOCCOCCOC)c(OCCOCCOCCOC)cc4N=C/C=c4\\[n-]/c(c(CCCO)c4C)=C\\C1=N2)C(C)=C3CCCO.[Gd+3]", "read by": "propidium iodide", "result": "~400 µM"}
{"structure": "C/C(=C\\CP(=O)(OCOC(=O)OC(C)C)OCOC(=O)OC(C)C)Cn1cc(C(=O)O)nn1", "read by": "absorbance", "result": ">100 µM"}
{"structure": "COc1ccc(C(=O)OCc2nc3ccccc3nc2C)c(OC)c1OC", "read by": "MTS", "result": ">100 µM"}
{"structure": "CCCCCCCCCCCCCCCCOCCCOP(=O)(O)OC[C@@H]1OC[C@H](n2cc(C)c(=O)[nH]c2=O)O1", "read by": "MTT", "result": "66.19 µM"}
{"structure": "Cc1cn([C@H]2C=C[C@@H](CO)O2)c(=O)[nH]c1=O", "read by": "tetrazolium", "result": ">100 µM"}
{"structure": "Cc1cn([C@H]2C=C[C@@H](CO)O2)c(=O)[nH]c1=O", "read by": "XTT", "result": ">0.5 µM"}
{"structure": "[N-]=[N+]=N[C@H]1C[C@H](CO)O[C@@H]1n1cc(F)c(N)nc1=O", "read by": "trypan blue", "result": ">100 µM"}
{"structure": "COC(=O)[C@H](C)NP(=O)(OC[C@@H]1OC[C@H](n2cc(C)c(=O)[nH]c2=O)O1)Oc1ccc(OC)cc1", "read by": "MTT", "result": "21.1 µM"}
{"structure": "CCCCCCCCCCCCCCCCOCCCOP(=O)(C/C=C(\\C)Cn1cc(C(N)=O)nn1)OCOC(=O)OC(C)C", "read by": "absorbance", "result": "66.4 µM"}
{"structure": "COC(=O)c1ccc(=O)c2nc3/c(=C\\O)c(O)cc(=O)c3[nH]c12", "read by": "MTS", "result": ">3.6 µM"}
{"structure": "OCCN(CCO)c1nc(-c2cccs2)cc(-c2cc3ccccc3s2)n1", "result": "100 µM"}
{"structure": "Cc1cn([C@H]2C[C@H](N=[N+]=[N-])[C@@H](CO)O2)c(=O)[nH]c1=O", "read by": "XTT", "result": ">1 µM"}
{"structure": "C/C(=C/C(=O)c1ccccc1)Nc1ccc(O)cc1", "read by": "MTS", "result": ">100 µM"}
{"structure": "Cc1ccc(CCNC(=O)OC[C@@H]2C=C[C@H](n3cc(C)c(=O)[nH]c3=O)O2)cc1", "read by": "tetrazolium", "result": ">100 µM"}
{"structure": "COC(=O)[C@@H](C)NP(=O)(OC[C@@H]1OC[C@H](n2cc(C)c(=O)[nH]c2=O)O1)Oc1ccccc1", "read by": "MTT", "result": ">100 µM"}
{"structure": "C[C@@H]1NC(=O)[C@H](C)N([C@H]2C[C@H](N=[N+]=[N-])[C@@H](CO)O2)C1=O", "read by": "XTT", "result": ">100 µM"}
{"structure": "Cc1c(Cl)ccc2cc(/C=C/C(=O)c3ccc(Br)cc3)c(Cl)nc12", "read by": "MTT", "result": "32.09 µM"}
{"structure": "Cc1cn([C@H]2C[C@H](N=[N+]=[N-])[C@@H](CO)O2)c(=O)[nH]c1=O", "read by": "absorbance", "result": "1360 µM"}
{"structure": "NCC(NC(=O)c1ccc(-c2ccc3c(c2)OCO3)[nH]1)c1ncc(CO)s1", "read by": "MTS", "result": "61.3 µM"}
{"structure": "COC(=O)c1cn(C/C(C)=C/CP(=O)(OCOC(=O)OC(C)C)OCOC(=O)OC(C)C)nn1", "read by": "absorbance", "result": "40.9 µM"}
{"structure": "CN(CCCN)CCCNc1nc(-c2cccs2)cc(-c2cccs2)n1", "result": "100 µM"}
{"structure": "CCCCCCCC/C=C\\CCCCC(CCC(=O)O)NC1c2ccc3cc4c5c6c(cc7ccc8cc9cc1c1c9c9c8c7c6c9c6c1c2c3c56)C4", "read by": "trypan blue", "result": ">1300 µM"}
{"structure": "Cc1cn([C@H]2C=C[C@@H](COC(=O)CCCCCCCCC(=O)O)O2)c(=O)[nH]c1=O", "read by": "XTT", "result": ">0.5 µM"}
{"structure": "C[C@@H](CN[C@H](CN[C@H](CN[C@H](CNCCC(N)=O)Cc1ccc(O)cc1)Cc1ccc(O)cc1)Cc1ccc(O)cc1)NC[C@H](Cc1ccc(O)cc1)NC[C@@H](N)Cc1ccc(O)cc1", "read by": "MTS", "result": ">100 µM"}
{"structure": "CC1CC(C)CN(S(=O)(=O)c2ccccc2[N+](=O)[O-])C1", "read by": "trypan blue", "result": ">50 µM"}
{"structure": "COC(=O)CNP(=O)(OC[C@@H]1OC[C@H](n2cc(C)c(=O)[nH]c2=O)O1)Oc1ccccc1", "read by": "MTT", "result": ">100 µM"}
{"structure": "CCOC(=O)c1cn(C/C(C)=C/CP(=O)(OCOC(=O)OC(C)C)OCOC(=O)OC(C)C)nn1", "read by": "absorbance", "result": "67.5 µM"}
{"structure": "Cc1cn([C@H]2C[C@H](F)[C@@H](COC(=O)CCCCCCCCC(=O)O)O2)c(=O)[nH]c1=O", "read by": "XTT", "result": ">0.5 µM"}
{"structure": "C=CCc1ccccc1OP(=O)(N[C@@H](C)C(=O)OC)OC[C@@H]1OC[C@H](n2cc(C)c(=O)[nH]c2=O)O1", "read by": "MTT", "result": ">100 µM"}
{"structure": "Cc1c(Cl)ccc2cc(/C=C/c3sccc3Br)c(Cl)nc12", "read by": "MTT", "result": "47.9 µM"}
{"structure": "COc1ccc2nc(Cl)c(/C=C/C(=O)c3ccc(I)s3)cc2c1", "read by": "MTS", "result": "23.7 µM"}
{"structure": "NC(N)=NC(=O)c1ccc(N2CCCCCC2)nc1", "read by": "fluorescence", "result": "112 µM"}
{"structure": "Cc1cn([C@H]2CO[C@@H](CO[P@@]3(=O)OCC[C@@H](c4ccccc4)O3)O2)c(=O)[nH]c1=O", "read by": "MTT", "result": ">100 µM"}
{"structure": "C[C@@H](CN[C@H](CN[C@H](CN[C@H](CNCCC(N)=O)Cc1ccc(O)cc1)Cc1ccc(O)cc1)Cc1ccc(O)cc1)NC[C@H](Cc1ccc(O)cc1)NC[C@H](Cc1ccc(O)cc1)NC[C@@H](N)Cc1ccc(O)cc1", "read by": "MTS", "result": "75 µM"}
{"structure": "O=C1CN([C@H]2C[C@H](O)[C@@H](CO)O2)C(=O)CN1", "read by": "XTT", "result": ">100 µM"}
{"structure": "CCCCCCCCCCCCCCCCOCCCOP(=O)(C/C=C(\\C)Cn1cc(-c2ccc(CCCCC)cc2)nn1)OCOC(=O)OC(C)C", "read by": "absorbance", "result": "50.5 µM"}
{"structure": "CCCCCCCCCCCCCCCCOCCOP(=O)(O)CO[C@H](C)Cn1cnc2c(N)ncnc21", "read by": "XTT / absorbance", "result": ">100 µM"}
{"structure": "CN1CCCC(CNC(=O)c2nc(-c3ccccn3)[nH]c(=O)c2O)C1", "read by": "absorbance", "result": ">50 µM"}
{"structure": "COc1cc(OC)cc(C(=O)OCc2nc3ccccc3nc2C)c1", "read by": "MTS", "result": ">100 µM"}
{"structure": "CN(C)CCNc1nc(-c2cc3ccccc3s2)c2ccccc2n1", "result": "100 µM"}
{"structure": "CCCCC1=NC2CC(/C=C/C(=O)NO)=CC=C2N1CCN(CC)CC", "read by": "ATP / luminescence", "result": ">50 µM"}
{"structure": "C/C(=C\\CP(=O)(OCOC(=O)OC(C)C)OCOC(=O)OC(C)C)Cn1cc(C(N)=O)nn1", "read by": "absorbance", "result": "76.8 µM"}
{"structure": "OCCN(CCO)c1nc(-c2cccs2)cc(-c2cccs2)n1", "result": "100 µM"}
{"structure": "Cc1cn([C@H]2CO[C@@H](CO[P@@]3(=O)OCC[C@@H](c4cccc(Cl)c4)O3)O2)c(=O)[nH]c1=O", "read by": "MTT", "result": ">100 µM"}
{"structure": "Cc1nc(C(CN)NC(=O)c2ccc(-c3ccc(F)c(F)c3)[nH]2)sc1CO", "read by": "MTS", "result": "47.1 µM"}
{"structure": "COc1ccc2nc(Cl)c(/C=C/C(=O)c3ccc[nH]3)cc2c1", "read by": "MTS", "result": "1.7 µM"}
{"structure": "COc1cc(C(=O)OCc2nc3ccccc3nc2C)cc(OC)c1OC", "read by": "MTS", "result": ">100 µM"}
{"structure": "C/C(=C\\CP(=O)(OCOC(=O)OC(C)C)OCOC(=O)OC(C)C)Cn1cc(C(C)(C)C)nn1", "read by": "absorbance", "result": "28.3 µM"}
{"structure": "Cc1cn([C@H]2C[C@H](N=[N+]=[N-])[C@@H](COC(=O)CCCCCCCCCCC(=O)O)O2)c(=O)[nH]c1=O", "read by": "XTT", "result": ">0.5 µM"}
{"structure": "NC(=O)C[C@H](NC(=O)CNC1c2ccc3cc4c5c6c(cc7ccc8cc9cc1c1c9c9c8c7c6c9c6c1c2c3c56)C4)C(=O)O", "read by": "trypan blue", "result": ">280 µM"}
{"structure": "CNC(=O)c1cn(C/C(C)=C/CP(=O)(OCOC(=O)OC(C)C)OCOC(=O)OC(C)C)nn1", "read by": "absorbance", "result": "78.3 µM"}
{"structure": "CC(=O)c1c(C)nc(-c2ccccc2)nc1NC(=O)c1ccccc1", "read by": "trypan blue", "result": ">50 µM"}
{"structure": "Cc1c(Cl)ccc2cc(/C=C/C(=O)c3ccc(Cl)cc3)c(Cl)nc12", "read by": "MTT", "result": "22.99 µM"}
{"structure": "C/C(=C\\CP(=O)(OCOC(=O)OC(C)C)OCOC(=O)OC(C)C)Cn1cc(C2CC2)nn1", "read by": "absorbance", "result": "25.5 µM"}
{"structure": "N=C1Sc2ccccc2C2=NCCCN12", "read by": "LDH", "result": "200 µM"}
{"structure": "C=CCNc1nc(N)nc2c1ncn2C/C(C)=C/CP(=O)(OCOC(=O)C(C)(C)C)OCOC(=O)C(C)(C)C", "read by": "absorbance", "result": "24.1 µM"}
{"structure": "NC(=O)CCNC(=O)c1ccccc1SCc1ccc([N+](=O)[O-])o1", "read by": "XTT", "result": ">50 µM"}
{"structure": "COc1ccc(C(=O)/C=C/c2cc3ccc(Cl)c(C)c3nc2Cl)c(Br)c1", "read by": "MTT", "result": "47.08 µM"}
{"structure": "CCCCc1cn(-c2cccc(S(=O)(=O)Nc3cccc4cnccc34)c2)nn1", "read by": "fluorescence", "setting": "72 h", "result": "63 µM"}
{"structure": "C=C(C)C12OCOC1C1C3OC3(CO)C(O)C3(O)C(=O)C(C)=CC3C1(O/C=C/C=C/CCC)C(C)C2OC(=O)c1ccccc1", "read by": "fluorescence", "result": ">15 µM"}
{"structure": "Cc1cn([C@H]2C=C[C@@H](COC(=O)NCCc3ccccc3)O2)c(=O)[nH]c1=O", "read by": "tetrazolium", "result": ">100 µM"}
{"structure": "Cc1cnc(SCCN(C)C)nc1-c1ccc(-c2nc(SCCN(C)C)ncc2C)s1", "result": "10 µM"}
{"structure": "Cc1ccc2nc(Cl)c(/C=C/C(=O)c3ccc(I)s3)cc2c1", "read by": "MTS", "result": "32 µM"}
{"structure": "CCCCCCCCCCCCCCCCCCOCCOP(=O)(CO[C@H](C)Cn1cnc2c(N)ncnc21)OC1CC1", "read by": "luminescence", "result": "5.28 µM"}
{"structure": "O=C(NCC1CCc2ccccc2N1)Nc1cccc(Cl)c1", "result": "50 µM"}
{"structure": "Cc1ccc2nc(Cl)c(/C=C/C(=O)c3ccc(Br)s3)cc2c1", "read by": "MTS", "result": "16.3 µM"}
{"structure": "[N-]=[N+]=N[C@H]1C[C@H](N2CC(=O)NCC2=O)O[C@@H]1CO", "read by": "XTT", "result": ">100 µM"}
{"structure": "Cc1cn([C@H]2CO[C@@H](COP(=O)(N[C@@H](C)C(=O)OCc3ccccc3)Oc3ccccc3)O2)c(=O)[nH]c1=O", "read by": "MTT", "result": ">100 µM"}
{"structure": "COc1ccc2nc(Cl)c(/C=C/C(=O)c3ccc4ccccc4c3)cc2c1", "read by": "MTS", "result": ">100 µM"}
{"structure": "CCCCCCCCCCCCCCCCCCOCCOP(=O)(O)CO[C@H](CO)Cn1cnc2c(N)nc(N)nc21", "read by": "flow cytometry", "result": "6 µM"}
{"structure": "COc1ccc2nc(Cl)c(/C=C/C(=O)c3c4ccccc4cc4ccccc34)cc2c1", "read by": "MTS", "result": "10.2 µM"}
{"structure": "Cc1ccc(NC(=O)CN2CCN(Cc3nc(-c4ccc(F)cc4)no3)CC2)cc1", "read by": "absorbance", "result": ">100 µM"}
{"structure": "COc1ccc2nc(Cl)c(/C=C/C(=O)c3sccc3C)cc2c1", "read by": "MTS", "result": "47.8 µM"}
{"structure": "Cc1ccnc2c1NC(=O)c1cccnc1N2C1CC1", "read by": "XTT", "result": ">1000 µM"}

For reference, 5 entries again:

Cc1cn([C@H]2C[C@H](N=[N+]=[N-])[C@@H](COC(=O)CCCCCCCCCCC(=O)O)O2)c(=O)[nH]c1=O ; read by: XTT ; result: >0.5 µM
Cc1ccc(CCNC(=O)OC[C@@H]2C=C[C@H](n3cc(C)c(=O)[nH]c3=O)O2)cc1 ; read by: tetrazolium ; result: >100 µM
Cc1cn([C@H]2C=C[C@@H](CO)O2)c(=O)[nH]c1=O ; read by: tetrazolium ; result: >100 µM
Cc1ccc2nc(Cl)c(/C=C/C(=O)c3ccc(Br)s3)cc2c1 ; read by: MTS ; result: 16.3 µM
O=C(NCC1CCc2ccccc2N1)Nc1cccc(Cl)c1 ; result: 50 µM